Target: recombinant Syrian golden hamster proteinase K-sensitive prion protein (residues 23-231) (Syrian golden hamster) (UniProt Q60468)
Assay: cell-based or functional assay

PrP-res in brain homogenate from a human variant CJD patient (from UniProt P04156 23-230)
rHaPrP-res^(vCJD)-positive QUIC reactions, 1 fg PrP-res seed, 8 h, 50° C. (of 6 reactions): 1 | rHaPrP-res^(vCJD)-positive QUIC reactions, 1 fg PrP-res seed, 18 h, 50° C. (of 6 reactions): 2 | rHaPrP-res^(vCJD)-positive QUIC reactions, 100 fg PrP-res seed, 8 h, 50° C. (of 6 reactions): 5 | rHaPrP-res^(vCJD)-positive QUIC reactions, 100 fg PrP-res seed, 18 h, 50° C. (of 6 reactions): 6

Source: US20180172709A1
